Anti-infective test results gathered from many reports (values: NIAID ChemDB through PubChem).

Common to all: growth or infection tests; organism: Cryptococcus neoformans; endpoint: MIC50

Neighbouring rows are from separate reports. A number after MIC or MFC names an inhibition level or a share of isolates.

Nc1ncccc1-c1cc(Cc2ccc(COc3ccccn3)cc2)no1 ; method: broth dilution ; result: 0.13 µg/mL
CCC(C)n1ncn(-c2ccc(N3CCN(c4ccc(OC[C@H]5CO[C@](Cn6cncn6)(c6ccc(Cl)cc6Cl)O5)cc4)CC3)cc2)c1=O ; strain or isolate: 42 isolates (HIV+) ; result: 0.06 µg/mL
Nc1[nH]c(=O)ncc1F ; strain or isolate: 37 strains ; result: 4 µg/mL
COc1ccc(-c2c3c(N)c4c(nc3nc3c2c(C)nn3-c2ccccc2)CCCC4)cc1 ; strain or isolate: ATCC 32264 ; method: broth dilution / absorbance ; result: 125 µg/mL
C[C@H]1[C@H](O)[C@@H](C)/C=C/C=C/C=C/C=C/C=C/C=C/C=C/[C@H](O[C@@H]2O[C@H](C)[C@@H](O)[C@H](N)[C@@H]2O)C[C@@H]2O[C@](O)(C[C@@H](O)C[C@@H](O)CC[C@H](O)[C@@H](O)C[C@@H](O)CC(=O)O[C@H]1C)C[C@H](O)[C@H]2C(=O)O ; strain or isolate: 9 strains ; result: 1 µg/mL
CCC(C)n1ncn(-c2ccc(N3CCN(c4ccc(OC[C@H]5CO[C@](Cn6cncn6)(c6ccc(Cl)cc6Cl)O5)cc4)CC3)cc2)c1=O ; strain or isolate: 32 isolates ; result: 0.008 µg/mL
C[C@H]1[C@H](O)[C@@H](C)/C=C/C=C/C=C/C=C/C=C/C=C/C=C/[C@H](O[C@@H]2O[C@H](C)[C@@H](O)[C@H](N)[C@@H]2O)C[C@@H]2O[C@](O)(C[C@@H](O)C[C@@H](O)CC[C@H](O)[C@@H](O)C[C@@H](O)CC(=O)O[C@H]1C)C[C@H](O)[C@H]2C(=O)O ; result: 0.05 µg/mL
CCC(C)n1ncn(-c2ccc(N3CCN(c4ccc(OC[C@H]5CO[C@](Cn6cncn6)(c6ccc(Cl)cc6Cl)O5)cc4)CC3)cc2)c1=O ; method: broth dilution ; result: 0.13 µg/mL
Cc1ccc(-c2c3c(N)c4c(nc3nc3c2c(C)nn3-c2ccccc2)CCC4)cc1 ; strain or isolate: ATCC 32264 ; method: broth dilution / absorbance ; result: 7.8 µg/mL
CCCCCOc1ccc(-c2cc(-c3ccc(C(=O)N[C@H]4C[C@@H](O)[C@@H](O)NC(=O)[C@@H]5[C@@H](O)[C@@H](C)CN5C(=O)[C@H]([C@H](O)CC(N)=O)NC(=O)[C@H]([C@H](O)[C@@H](O)c5ccc(O)c(OS(=O)(=O)O)c5)NC(=O)[C@@H]5C[C@@H](O)CN5C(=O)[C@H]([C@@H](C)O)NC4=O)cc3)no2)cc1 ; strain or isolate: 5 isolates ; result: >64 µg/mL
Cc1nn(-c2ccccc2)c2nc3nc4c(c(N)c3c(-c3ccc(Cl)cc3)c12)CCCCC4 ; strain or isolate: ATCC 32264 ; method: broth dilution / absorbance ; result: 125 µg/mL
C[C@@H](c1ncncc1F)[C@](O)(Cn1cncn1)c1ccc(F)cc1F ; strain or isolate: 12 strains ; result: 0.06 µg/mL
Nc1[nH]c(=O)ncc1F ; strain or isolate: 15 isolates ; result: 2 µg/mL
CCCCCOc1ccc(-c2ccc(-c3ccc(C(=O)N[C@H]4C[C@@H](O)[C@@H](O)NC(=O)[C@@H]5[C@@H](O)[C@@H](C)CN5C(=O)[C@H]([C@H](C)O)NC(=O)[C@H]([C@H](O)[C@@H](O)c5ccc(O)cc5)NC(=O)[C@@H]5C[C@@H](O)CN5C(=O)[C@H]([C@H](C)O)NC4=O)cc3)cc2)cc1 ; strain or isolate: 10 strains ; result: >16 µg/mL
Cn1nc(Cc2ccc(Cl)cc2)c2ccccc2c1=O ; strain or isolate: Clinical isolate (IM 972724) ; method: broth dilution ; result: 3.9 µg/mL
C=C1CO[C@H]2[C@@H](C)OC(OC[C@@]34C[C@H]5[C@H](C)CC[C@@H]5[C@@]5(C=O)C[C@@H]3C=C(C(C)C)[C@@]45C(=O)O)C[C@@H]12 ; strain or isolate: 137 strains (serotype A) ; result: 0.5 µg/mL

The last 2 rows once more:

{"structure": "Cn1nc(Cc2ccc(Cl)cc2)c2ccccc2c1=O", "strain or isolate": "Clinical isolate (IM 972724)", "method": "broth dilution", "result": "3.9 µg/mL"}
{"structure": "C=C1CO[C@H]2[C@@H](C)OC(OC[C@@]34C[C@H]5[C@H](C)CC[C@@H]5[C@@]5(C=O)C[C@@H]3C=C(C(C)C)[C@@]45C(=O)O)C[C@@H]12", "strain or isolate": "137 strains (serotype A)", "result": "0.5 µg/mL"}